This series addresses T1, Crp (UniProt C0MAI4).
T1 sequence (looked up): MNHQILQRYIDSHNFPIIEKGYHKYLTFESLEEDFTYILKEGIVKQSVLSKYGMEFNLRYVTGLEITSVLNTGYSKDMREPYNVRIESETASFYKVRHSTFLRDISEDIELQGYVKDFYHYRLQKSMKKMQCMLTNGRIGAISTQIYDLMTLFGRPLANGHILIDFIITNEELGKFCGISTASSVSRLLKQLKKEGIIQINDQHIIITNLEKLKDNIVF
Briefly: EMSA. The conditions noted are these: cAMP; 20 mM Tris-HCl pH 7.5, 30 mM KCl, 1 mM DTT, 1 mM EDTA, 10% glycerol; 80 ng DNA, 1-2 ug protein, 20 ul, 30 min, 37 C; native 8% PAGE in 0.5x TBE; recombinant protein; residues 1-219; protein details: His tag (pCold I); probe letters rebuilt from the primers and the genome. (A gel shift assay detects complexes by their altered migration in electrophoresis.)

Tags and fusion partners may be left off the protein sequences shown.

For “CAATTCGCCAACCGTTTGTATATAAGGATCCAAAAATTCTTCCCAATCTAAAGCCATCCTTTCTCTCCTTTCTTGTCAAACCTCGGATATTAATATAAAATTAAGATAACAATTTATTATAGCATAAAATATAGTTAAAAGGAACGTTCGCATGACTAACCTAGAAATCGAATACAAGACCTTACTGACAAAGGACGAATATAACCGCCTCCTCTCTCAAATGACTCATGTCCCACCAGTTACCCAGACGAACTATTACATTGATACTGACCATTTTGATCTCAAGGCTCATAAAATGTCCCTTCGCATTCGCACCTTTGTTGCTGCTCCTGCTGAATTAACCTTAAAAGTCCCTGAAAAAGTTGGTAATCGCGAGTACAATTTAGAGCTTGATGACACCCAAGCAAAAGCTATCATTCAGACAGGACAGCTACCAAAATCAGCTATCCTTGATATTATCAGCACTCT (double strand) [relQ promoter (prelQ)]”, the binding result was “binds”.
